In this experiment the test system is tetanus toxoid (TT). The experiment in a line: Adjuvant effect on tetanus toxoid (TT) protein vaccine. Type of experiment: in vivo, mouse. The settings on record: vaccinated day 0 and day 28.

Regarding α-Galactosyl ceramide, the “production of anti-TT-specific IgG antibody” value is reported as “enhanced”.

Source of the values: patent US20080260774A1, “Alpha-galactosyl ceramide analogs and their use as immunotherapies” (priority 2007, published 2008).
